Library screen at single concentrations

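Whole-cell growth test on Mycobacterium tuberculosis, read after 3 days in glucose-containing 7H9 medium; the read-out is not stated. Compounds at 500 µM. Direction is inferred from retests: higher values go with more growth inhibition. About 18,000 compounds were tested under these conditions; 7.9% (about 1,400) showed 50% or more at least once.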

The filed quantity is “Percent Effect” (%). The controls that fix the scale are not given in the record; negative values are as filed. This is part of a subset picked to be rich in strong results.

| # | Compound | effect |
|---|---|---|
| 1 | `C=C(C)Cn1c(S(C)(=O)=O)nc2ccccc21` | 52.77% |
| 2 | `Cc1ncn(CC(O)c2cccc(F)c2)c(=O)c1C` (stereo not given) | 39.31% |
| 3 | `c1csc(CSCCNC2=NCCN2)c1` | 54.98% |
| 4 | `Cc1cc(CN(C)C(=O)C2CCCCCN2C)no1` (stereo not given) | 10.4% |
| 5 | `Cc1ccc(S(=O)(=O)NC(CN)C2CC2)c(F)c1` (stereo not given) | 51.57% |
| 6 | `O=c1c2cccnc2ncn1CCOCC(F)F` | -3.229% |
| 7 | `CN1CCCN(C(=O)c2ccc(F)cc2)CC1` | -4.381% |
| 8 | `CCn1nnnc1SCc1cc(C#N)ccc1F` | 70.1% |
| 9 | `CCCn1ncc(CN2CCC(O)(CO)C2)c1C` (stereo not given) | 2.721% |
| 10 | `NCC(O)c1ccc(Cl)c(Cl)c1` (stereo not given) | 76.48% |
| 11 | `CO[C@H]1CN(C(=O)c2csc(CN(C)C)n2)CC[C@H]1N` | -2.562% |
| 12 | `CCOCCC(=O)N[C@@H]1COCC[C@@H]1OCC(N)=O` | -3.637% |
| 13 | `O=C1CN(C(=O)c2cc3cccc(Br)c3o2)CCN1` | 6.077% |
| 14 | `CC1CCN(CC(=O)N(C)Cc2ccccn2)CC1` | 3.867% |
| 15 | `CCOc1cc(C(=O)NCCCOC(C)C)ccn1` | 78.87% |
| 16 | `CCOc1ncc(C(=O)NCC(C)(O)C(C)C)cc1Cl` (stereo not given) | 70.99% |
| 17 | `CN1CCN(C(=O)c2cc3ccccc3o2)CC1` | 66.64% |
| 18 | `CCC1=NOC(C(=O)N2CCC(c3nnc[nH]3)CC2)C1` (stereo not given) | -1.732% |
| 19 | `N[C@H]1CN(S(=O)(=O)c2cccc(Cl)c2)C[C@@H]1C1CC1` | 71.14% |
| 20 | `CCN(CCO)C[C@@H]1CN(C(=O)C2(C)CC2)C[C@@H]1CO` | 0.3106% |
| 21 | `CCS(=O)(=O)NCC(N)c1ccc(C(C)C)cc1` (stereo not given) | 74.45% |
| 22 | `CC1CN(C2CCN(c3ccncc3Cl)CC2)CCO1` (stereo not given) | 18.59% |
| 23 | `O=C(Nc1cc(F)cc(F)c1)N[C@@H]1CNCC[C@H]1O` | 30.35% |
| 24 | `CN1CCC2(CCNCC2)C1=O` | 11.79% |
| 25 | `CCC(CC)(NC(=O)c1noc2c1CCCC2)C(N)=O` | 16.81% |
| 26 | `O=C(CN1CCCCCCC1)NCc1ncc[nH]1` | 14.42% |
| 27 | `Cc1cc(C)c(CNC(=O)c2ccc(C)o2)c(=O)[nH]1` | -0.6058% |
| 28 | `CCS(=O)(=O)N1CCC2(CC1)OCCO2` | 3.075% |
| 29 | `O=C(c1ccc(N2CCOCC2)c(F)c1)N1CCCC1` | -0.3869% |
| 30 | `NC(=O)CCS(=O)(=O)CCN1CCCCCC1` | 64.53% |
| 31 | `NC[C@@H]1CCO[C@H]1c1ccccc1` | 13.6% |
| 32 | `O=C(Nc1cnccc1O)C1(c2ccccc2)CC1` | -2.331% |
| 33 | `OCC(O)CNc1ccnc2ccc(Cl)cc12` (stereo not given) | -29.82% |
| 34 | `COc1cnc(N2C[C@H](C(C)C)[C@@H](N)C2)nc1` | 17.89% |
| 35 | `O=C(Nc1nccs1)C1CCCN(C(=O)NC2CC2)C1` (stereo not given) | 17.07% |
| 36 | `Cc1nnc(CCNC(=O)c2c(C)nn(C)c2C)s1` | -9.067% |
| 37 | `COc1cccc(CN)c1C` | 6.256% |
| 38 | `OC(CN1CCN(c2ccccn2)CC1)C1CC1` (stereo not given) | -8.374% |
| 39 | `Cc1ccc(C(=O)N2CCC(F)(F)C(CO)C2)cn1` (stereo not given) | 11.98% |
| 40 | `O=C(c1n[nH]c(=O)c2ccccc12)N1CCCCC1` | 7.78% |
| 41 | `CN(C(=O)CSc1ccccc1Cl)C1CCS(=O)(=O)C1` (stereo not given) | 17.99% |
| 42 | `N#Cc1ccc(S(=O)(=O)NCCN)cc1C(F)(F)F` | 77.68% |
| 43 | `CN(C)c1ncc(CNC(=O)C2CCC2)n1C` | 1.812% |
| 44 | `COCC(C)NC(=O)c1ccc(OC)c(F)c1` (stereo not given) | 38.27% |
| 45 | `Nc1ncnc(N2CCCCC2)n1` | 4.452% |
| 46 | `NCCN1CCN(c2cccc(C(F)(F)F)c2)CC1` | 80.16% |
| 47 | `COc1ccccc1NC(=O)C(C)N1CCNC(=O)C1` (stereo not given) | 5.432% |
| 48 | `CCOC(=O)CCN(CC1CC1)C(=O)c1ccccn1` | 14.45% |
| 49 | `Cc1cc(Cl)ccc1NC(=O)CN1CCS(=O)(=O)CC1` | 12.83% |
| 50 | `CCOc1ccc(NC(=O)C(C)n2cccn2)cc1` (stereo not given) | 34.27% |
| 51 | `Brc1cccc2c1CNCCO2` | 51.78% |
| 52 | `CCOc1ccc2[nH]c(C(C)O)nc2c1` (stereo not given) | -4.087% |
| 53 | `CC(=O)c1cc[nH]n1` | -7.747% |
| 54 | `C[S+]([O-])c1nncn1CCCOc1cccc(Cl)c1` (stereo not given) | 62.4% |
| 55 | `CC(C)Oc1cc(Br)ccc1C(=O)N(C)CC(N)=O` | 19.53% |
| 56 | `OC(CN1CCCSCC1)c1ccc(F)cc1` (stereo not given) | 53.55% |
| 57 | `CC(N)C(=O)N(CCN(C)C)Cc1ccccc1F` (stereo not given) | 17.63% |
| 58 | `CCCOc1ccc(CN)cc1` | 23.15% |
| 59 | `CNC(=O)CCC1CCCCN1` (stereo not given) | -2.327% |
| 60 | `CS(=O)(=O)N[C@@H]1CCOC[C@H]1OCc1cscn1` | 6.817% |
| 61 | `NC[C@@H]1Cc2ccccc2CO1` | 2.586% |
| 62 | `c1nc(N2CCNCC2)c2sccc2n1` | -3.832% |
| 63 | `NCc1cc(F)c(N2CCOCC2)c(F)c1` | -11.26% |
| 64 | `CCc1n[nH]c(SCC(=O)NCCSc2cnn[nH]2)n1` | 21.19% |
| 65 | `Cc1cc(NC(=O)COc2ccc3c(c2)OCO3)no1` | -8.058% |

Some entries from above, unchanged:

Compound,effect
CCN(CCO)C[C@@H]1CN(C(=O)C2(C)CC2)C[C@@H]1CO,0.3106%
CCCn1ncc(CN2CCC(O)(CO)C2)c1C (stereo not given),2.721%
Cc1ccc(S(=O)(=O)NC(CN)C2CC2)c(F)c1 (stereo not given),51.57%
NC(=O)CCS(=O)(=O)CCN1CCCCCC1,64.53%
Nc1ncnc(N2CCCCC2)n1,4.452%
Cc1cc(NC(=O)COc2ccc3c(c2)OCO3)no1,-8.058%
CCOc1ccc(NC(=O)C(C)n2cccn2)cc1 (stereo not given),34.27%

Source: ChEMBL document CHEMBL3988442, “University of Dundee, Small-Polar-MMV Screening Library” (2021).